Test results reported in PMC12691643.

Assays:
Assay in all cases: affinity purification with mass spectrometry; HA-tagged TgWIP variants pulled down by the HA tag from lysates of DC2.4 cells infected 4 h at MOI 7; host partners by mass spectrometry; values are negative fold changes in peptide counts of the mutant immunoprecipitations relative to TgWIP^WT
[1] = target: TgWIP^(PRR2 mut), HA-tagged (Toxoplasma gondii)
[2] = target: TgWIP^(PRR3 mut), HA-tagged (Toxoplasma gondii)
[3] = target: TgWIP^(WIRS mut), HA-tagged (Toxoplasma gondii)
[4] = target: TgWIP^Y150A/Y199A, HA-tagged (Toxoplasma gondii)

## Nck1, endogenous in murine DC2.4 cells (from UniProt Q99M51 1-377) (natural protein)
[1]
  negative fold change in peptide counts relative to TgWIP^WT: 1 fold
[2]
  negative fold change in peptide counts relative to TgWIP^WT: 60 fold
[3]
  negative fold change in peptide counts relative to TgWIP^WT: 1 fold
[4]
  negative fold change in peptide counts relative to TgWIP^WT: 1 fold
